One compound from publication PMC3041857 (Journal of medicinal chemistry, 2011) can be followed below.

For this data set, the system named is MDR1-MDCK cell monolayers.

As for `COc1ccc(-c2csc(Nc3cc4ccccc4cn3)n2)cc1OC` [Compound 17, [4-(3,4-dimethoxyphenyl)-thiazol-2-yl]-isoquinolin-3-yl-amine], the “Permeability (in words)” value is listed as “greater permeability in the absorptive direction”.
